Experimental findings from patent US20130202608A1 (TEMASEK LIFE SCIENCES LABORATORY, published 2013) are described below.

What all share (assay): cell-based or functional assay
Test [1] concerns the target T1, hemagglutinin of A/chicken/Henan/12/04 (H5N1, clade 8) (influenza A virus A/chicken/Henan/12/04 …).
Test [2] concerns the target T2, hemagglutinin of A/Hongkong/156/97 (H5N1, clade 0) (influenza A virus A/Hongkong/156/97 …, UniProt O56140 17-568).
In test [3] the target is T3, hemagglutinin of A/goose/Guiyang/337/06 (H5N1, clade 4) (influenza A virus …).
Test [4] deals with T4, hemagglutinin of RG-A/Hong Kong/213/2004 (H5N1, clade 1) (influenza A virus A/Hong Kong/213/2004 …).
The target in test [5] is T1, hemagglutinin of A/chicken/Henan/12/04 …. This is another data set of the same source.
Test [6] has as its target T2, hemagglutinin of A/Hongkong/156/97 …. The source holds these as a separate data set.
In test [7] the target is T3, hemagglutinin of A/goose/Guiyang/337/06 …. This is another data set of the same source.
Test [8] concerns the target T4, hemagglutinin of RG-A/Hong …. This is another data set of the same source.

B1: murine monoclonal antibody 4C2 (antibody, V domains shown)
VH: QESGAELVRPGASVKLSCKDSGYTFTTYWMNWVKQRPEQGLEWIGRIDPYDSETHYNQKFKDKAILTVDKSSNTAYMQLSSLTSEDSAVYYCVRGGSTVAYFGVWGQG
VL: MTQSPSSMSVSLGDTVSITCHASQDISGHIGWLQQKPGKSFKGLIYHGTNLEDGVPSRFSGSGSGADFSLTISSLESEDFADYYCVQYVQFPWTFGGGTK
Take B1: the HI titer was 512 titer (mAb at 1 mg/ml) in test [1], 256 titer (mAb at 1 mg/ml) in test [2], 256 titer (mAb at 1 mg/ml) in test [3] and 256 titer (mAb at 1 mg/ml) in test [4]. Besides, the “Microneutralization titers against H5N1 strains” value in test [5] is 640 titer (mAb at 1 mg/ml; 100 TCID50 of virus); in test [6] it was 320 titer (mAb at 1 mg/ml; 100 TCID50 of virus); in test [7], 320 titer (mAb at 1 mg/ml; 100 TCID50 of virus); in test [8] it was 320 titer (mAb at 1 mg/ml; 100 TCID50 of virus).
